T1: #116: [4-Mu]TRIDEANQRATK[DABCYL]-Nle, BoNT/A cleavable peptide
T1 chain: TRIDEANQRATKX

T2: #115: [5-Fam]TRIDEANQRATK[DABCYL]-Nle, BoNT/A cleavable peptide
T2 chain: TRIDEANQRATKX

B1: Thermolysin (protein)
chain: ITGTSTVGVGRGVLGDQKNINTTYSTYYYLQDNTRGNGIFTYDAKYRTTLPGSLWADADNQFFASYDAPAVDAHYYAGVTYDYYKNVHNRLSYDGNNAAIRSSVHYSQGYNNAFWNGSQMVYGDGDGQTFIPLSGGIDVVAHELTHAVTDYTAGLIYQNESGAINEAISDIFGTLVEFYANKNPDWEIGEDVYTPGISGDSLRSMSDPAKYGDPDHYSKRYTGTQDNGGVHINSGIINKAAYLISQGGTHYGVSVVGIGRDKLGKIFYRALTQYLTPTSNFSQLRAAAVQSATDLYGSTSQEVASVKQAFDAVGVK
B2: Proteinase K (protein)
chain: AAQTNAPWGLARISSTSPGTSTYYYDESAGQGSCVYVIDTGIEASHPEFEGRAQMVKTYYYSSRDGNGHGTHCAGTVGSRTYGVAKKTQLFGVKVLDDNGSGQYSTIIAGMDFVASDKNNRNCPKGVVASLSLGGGYSSSVNSAAARLQSSGVMVAVAAGNNNADARNYSPASEPSVCTVGASDRYDRRSSFSNYGSVLDIFGPGTSILSTWIGGSTRSISGTSMATPHVAGLAAYLMTLGKTTAASACRYIADTANKGDLSNIPFGTVNLLAYNNYQA

What was measured:
[1] = biological target: T1, #116: [4-Mu]TRIDEANQRATK[DABCYL]-Nle, …
[2] = biological target: T2, #115: [5-Fam]TRIDEANQRATK[DABCYL]-Nle, …

| Protein | KM [1] [µM] | KM [2] [µM] |
| --- | --- | --- |
| B1 | 12.7 | 8.16 |
| B2 | 4.48 | 5.46 |

— patent US20140235490
